Some results come without the dose or concentration used.

For this series, the system named is Toll-Like Receptor signalling pathway. In words: TLR pathway Real-time PCR array (84 genes) in PBMC. It is filed as cell-based, human. Particulars: flu-stimulated PBMC, 3 hours of incubation.

With `O=C(Nc1ncc(Cl)s1)c1ccccc1O` [RM-4848, N-(5-chlorothiazol-2-yl)-2-hydroxybenzamide], the “number of the 84 TLR-pathway genes upregulated” value is 7.

(Values after patent publication US10814612B2, “Use of thiazolide compounds for the prevention and treatment of viral diseases, cancer and diseases caused by intracellular infections” (priority 2011, dated 2020).)
